Experimental data reported in patent publication US20050267071A1, “Inhibitors of coronavirus protease and methods of use thereof” (Fulcrum Pharmaceuticals, Inc., priority 2003, published 2005).
The structures given here were assigned with low confidence; some may be wrong.

Target: SARS-associated coronavirus protease 3CL^pro (Severe acute respiratory syndrome coronavirus, UniProt P0C6U8)
Assay: Inhibition kinetics of recombinant SARS-associated 3CLpro protease (FRET fluorogenic substrate, Ki)
Format: biochemical
Conditions: read-out: Ki^app; protease 1 μM, 20 minutes preincubation at room temperature, inhibitor 0-150 μM, substrate 5 μM, pH 7.4

Question: How did the Ki turn out when `Nc1cc(B(O)O)cc(C(=O)OCc2cccc(B(O)O)c2)c1` was run?
Answer: 3.53 µM
